Source: PMC4416878, “Golgi Anti-apoptotic Proteins Are Highly Conserved Ion Channels That Affect Apoptosis and Cell Migration*” (2015)

Legend:
[1] = biological target: camelpox virus GAAP mutant E207Q, purified (camelpox virus (CMLV)); assay: SEC
[2] = biological target: camelpox virus GAAP mutant D219N, purified (camelpox virus (CMLV)); assay: SEC

Row | Substance | percent of protein oligomeric [1] | percent of protein oligomeric [2]
1 | camelpox virus GAAP mutant E207Q, purified (natural protein) | 89% | 
2 | camelpox virus GAAP mutant D219N, purified (natural protein) |  | 66%
